Anti-infective test results gathered from many reports (values: NIAID ChemDB through PubChem).

Common to all: tests in culture; organism: Candida albicans

A number after MIC or MFC names an inhibition level or a share of isolates.

SMILES,strain,method,endpoint,value
C=C1C[C@@H]2C[C@@H]3CCO[C@@H](O3)c3coc(n3)/C=C/C[C@H]3O[C@@H](/C(C)=C/c4coc(C[C@]5(O)C[C@H](OC)C[C@H]([C@H](O)/C=C(C)/C=C/[C@@H](C/C=C/Cl)OC)O5)n4)[C@H](C)[C@@H](OC(=O)/C=C\C[C@@H](C1)O2)[C@H]3C,UCD-FR1,broth dilution,MIC,8 µg/mL
CC(C)(C)c1ccc(COC(Cn2ccnc2)c2ccccc2)cc1,5M,-,MIC,128 µg/mL
CCCCCOc1ccc(N(C)CCN(C)c2ccc(C(=O)N[C@H]3CCCNC(=O)C4C[C@H](N)CN4C(=O)C(C(C)O)NC(=O)C(CCc4ccc(O)cc4)NC(=O)C4C[C@@H](O)CN4C(=O)C(C(C)O)NC3=O)cc2)cc1,ATCC 62376,-,MIC,1.56 µg/mL
C=C1C[C@@H]2C[C@@H]3CCO[C@@H](O3)c3cccc(c3)/C=C\C[C@H]3O[C@@H](/C(C)=C/C#N)[C@H](C)[C@@H](OC(=O)/C=C/C[C@@H](C1)O2)[C@H]3C,96-489,broth dilution,MIC,>64 µg/mL
CCN(CC)CC(=O)N/N=C\C(=O)c1ccc(-c2ccccc2)cc1,-,-,MIC,>50 µg/mL
CC(C)C(N)CCC(C)C1CCC2C3CC=C4C[C@@H](O)CCC4(C)C3CCC12C,A11651,-,MIC90,3.13 µg/mL
CC[C@@H]([C@H](C)O)n1ncn(-c2ccc(N3CCN(c4ccc(OC[C@@H]5CO[C@@](Cn6cncn6)(c6ccc(F)cc6F)C5)cc4)CC3)cc2)c1=O,13 strains (fluconazole-resistant),-,MIC90,>8 µg/mL
CCCCCOc1ccc(-c2ccc(-c3ccc(C(=O)N[C@H]4CCCNC(=O)C5CNCN5C(=O)C(C(C)O)NC(=O)C(CCc5ccc(O)cc5)NC(=O)C5C[C@@H](O)CN5C(=O)C(C(C)O)NC4=O)cc3)cc2)cc1,ATCC CCH442,-,MIC,0.78 µg/mL
Cc1nn(-c2ccccc2)c2c1C(c1cccc(Br)c1)C(C#N)=C(N)O2,MTCC 227,-,MIC,100 µg/mL
O=C(/C=C/c1ccc(Cl)cc1Cl)OC1CCN(CC(O)(Cn2cncn2)c2ccc(F)cc2F)CC1,Y0109,broth dilution,MIC80,0.117 µM
C[C@@H](N1CCN(Cc2cn(Cc3ccc(F)cc3)c3c(Cl)cccc23)CC1)[C@](O)(Cn1cncn1)c1ccc(F)cc1F,ATCC MYA-1003,resazurin,MIC80,16 µg/mL
Cc1ccc(C2c3c(nc(=S)[nH]c3N)Oc3c2c(C)nn3-c2ccccc2)cc1,MTCC 227,-,MIC,1000 µg/mL
C=C1C[C@@H]2C[C@@H]3CCO[C@@H](O3)c3coc(n3)/C=C/C[C@H]3O[C@@H](/C(C)=C/c4coc(C[C@]5(OC)C[C@H](OC)C[C@H]([C@H](O)/C=C(C)/C=C/[C@@H](C/C=C/Cl)OC)O5)n4)[C@H](C)[C@@H](OC(=O)/C=C\C[C@@H](C1)O2)[C@H]3C,UCD-FR1,broth dilution,MIC,>64 µg/mL
COc1cncc(C(N)=NNc2ccccc2)n1,-,broth dilution,MIC,16 µg/mL
C[C@@H](N1CCN(Cc2cn(Cc3cccc(C(F)(F)F)c3)c3c(F)cccc23)CC1)[C@](O)(Cn1cncn1)c1ccc(F)cc1F,ATCC 90028,resazurin,MIC80,0.125 µg/mL
CC(C)C(CCC(C)C1CC[C@@]2(C)C3=C(CCC12C)C1(C)CC[C@H](O)C(C)(C)C1CC3)SCc1ccccc1,A.10231,-,MIC90,50 µg/mL
COc1cncc(C(N)=NN(C)S(=O)(=O)c2ccc(C)cc2)n1,-,broth dilution,MIC,>256 µg/mL
O=C(CN1CCOCC1)N/N=C\C(=O)c1ccccc1,-,-,MIC,>50 µg/mL
CCCCCCCOC[N+](C)(C)Cc1cc(N=Nc2ccc(Cl)cc2)ccc1O,-,-,MIC,136 µM
CCOc1cc2c(cc1F)n([O-])c(C)c(Cl)[n+]2=O,Clinical isolate 3,-,MIC,62.5 µg/mL
O=C(/C=C/c1ccccc1[N+](=O)[O-])OC1CCN(CC(O)(Cn2cncn2)c2ccc(F)cc2F)CC1,Y0109,broth dilution,MIC80,0.03 µM
Cc1ccc(C(Cn2ccnc2)OC/C=C/c2ccccc2)cc1,CA12,-,MIC,>128 µg/mL
CCC(C)n1ncn(-c2ccc(N3CCN(c4ccc(OC[C@H]5CO[C@](Cn6cncn6)(c6ccc(Cl)cc6Cl)O5)cc4)CC3)cc2)c1=O,TIMM3164 (azole-resistant),-,MIC90,0.05 µg/mL
CCOc1cc2c(cc1F)n([O-])c(C)c(S(=O)(=O)c1ccccc1)[n+]2=O,Clinical isolate 2,-,MIC,15.6 µg/mL
C=C1C[C@@H]2C[C@@H]3CCO[C@@H](O3)c3cccc(c3)/C=C/C[C@H]3O[C@@H](/C(C)=C/C#N)[C@H](C)[C@@H](OC(=O)/C=C/C[C@@H](C1)O2)[C@H]3C,UCD-FR1,broth dilution,MIC,>64 µg/mL
CCC(=O)OC1CCN(CC(O)(Cn2cncn2)c2ccc(F)cc2F)CC1,Y0109,broth dilution,MIC80,0.159 µM
C[C@@H](N1CCN(Cc2cn(Cc3ccc(C(F)(F)F)cc3)c3ccccc23)CC1)[C@](O)(Cn1cncn1)c1ccc(F)cc1F,ATCC 36082,resazurin,MIC80,0.125 µg/mL
CCCCCOc1ccc(-c2ccc(-c3ccc(C(=O)N[C@H]4CCCNC(=O)C5C[C@H](N)CN5C(=O)C(C(C)C)NC(=O)C(CCc5ccc(O)cc5)NC(=O)C5C[C@@H](O)CN5C(=O)C(C(C)O)NC4=O)cc3)cc2)cc1,ATCC 10231,-,MIC,6.25 µg/mL
CC(C)C(CCC(C)C1CC[C@@]2(C)C3=C(CCC12C)C1(C)CC[C@H](O)C(C)(C)C1CC3)NC1CCCCC1,A.10231,-,MIC90,50 µg/mL
C=CCSS(=O)CC=C.CC(=O)N1CCN(c2ccc(OC[C@H]3CO[C@](Cn4ccnc4)(c4ccc(Cl)cc4Cl)O3)cc2)CC1,ATCC 14053,-,MIC90,0.125 µg/mL
Clc1cncc(-c2nc[n+](-c3ccccc3)[nH]2)n1,-,broth dilution,MIC,>256 µg/mL
C[C@@H](c1ncncc1F)[C@](O)(Cn1cncn1)c1ccc(F)cc1F,ATCC 36082,-,MIC80,0.03 µg/mL
CCCCCOc1ccc(-c2ccc(-c3ccc(C(=O)N[C@H]4CCCNC(=O)C5CCCN5C(=O)C(C(C)O)NC(=O)C(CCc5ccc(O)cc5)NC(=O)C5C[C@@H](O)CN5C(=O)C(C(C)O)NC4=O)cc3)cc2)cc1,ATCC 10231,-,MIC,3.12 µg/mL
CC(C)(C)c1ccc(COC(Cn2ccnc2)c2ccc(Cl)cc2Cl)cc1,Y0109,-,MIC,>128 µg/mL
Cc1nn(-c2ccccc2)c2c1C(c1cccc(Cl)c1)c1c(nc(=O)[nH]c1N)O2,MTCC 227,-,MIC,1000 µg/mL
CC(C)C(N)CCC(C)C1CC[C@@]2(C)C3=C(CCC12C)C1(C)CC[C@H](O)C(C)(C)C1CC3,B02630,-,MIC90,100 µg/mL
C=CCSS(=O)CC=C,ATCC 14053,-,MIC90,0.1 µg/mL
Cc1c(Cl)[n+](=O)c2cc(Cl)ccc2n1[O-],Clinical isolate 3,-,MIC,15.6 µg/mL
O=C(COc1cccc2ccccc12)OC1CCN(CC(O)(Cn2cncn2)c2ccc(F)cc2F)CC1,Y0109,broth dilution,MIC80,0.479 µM
O=C(CN1CCCC1)N/N=C\C(=O)c1ccc(Oc2ccccc2)cc1,-,-,MIC,>50 µg/mL
c1cnc(-c2n[nH]c(-c3cnccn3)n2)cn1,-,broth dilution,MIC,>256 µg/mL
Cc1ccc(C(Cn2ccnc2)OCc2ccc(-c3ccccc3)cc2)cc1,5M,-,MIC,128 µg/mL
C[C@@H](N1CCN(Cc2cn(Cc3ccc(F)cc3)c3c(F)cccc23)CC1)[C@](O)(Cn1cncn1)c1ccc(F)cc1F,ATCC 90028,resazurin,MIC80,2 µg/mL
C(=C\c1ccccc1)/COC(Cn1ccnc1)c1ccccc1,CA7,-,MIC,128 µg/mL
CC(C)C(CCC(C)C1CCC2C3CC=C4C[C@@H](O)CCC4(C)C3CCC12C)NS(=O)(=O)O,B02630,-,MIC90,6.25 µg/mL
Cc1ccc(C2c3c(nc(=O)[nH]c3N)Oc3c2c(C)nn3-c2ccccc2)cc1,MTCC 227,-,MIC,1000 µg/mL
CCCCCCCCCCOC[N+](C)(C)Cc1cc(N=Nc2ccc(Cl)cc2)ccc1O,-,-,MIC,504 µM
CC(O)Cn1cc(CN2CCN([C@H](C)[C@](O)(Cn3cncn3)c3ccc(F)cc3F)CC2)c2cccc(Cl)c21,ATCC 64548,resazurin,MIC80,1 µg/mL
CCCCCCOC[N+](C)(C)Cc1cc(N=Nc2ccc(Cl)cc2)ccc1O,-,-,MIC,70 µM
CN(CCCC#CC(C)(C)C)c1cccc2c1CCC(=O)N2,Clinical isolate 21,-,MIC,62.5 µg/mL
CCCCCOc1ccc(-c2ccc(-c3ccc(C(=O)N[C@H]4CCCNC(=O)C5C[C@H](F)N5C(=O)C(C(C)O)NC(=O)C(CCc5ccc(O)cc5)NC(=O)C5C[C@@H](O)CN5C(=O)C(C(C)O)NC4=O)cc3)cc2)cc1,ATCC 62376,-,MIC,0.39 µg/mL
C=C1C[C@@H]2C[C@@H]3CCO[C@@H](O3)c3cccc(c3)/C=C\C[C@H]3O[C@@H](/C(C)=C/I)[C@H](C)[C@@H](OC(=O)/C=C/C[C@@H](C1)O2)[C@H]3C,ATCC 14503,broth dilution,MIC,>64 µg/mL
Clc1ccc(C(Cn2ccnc2)OC/C=C/c2ccccc2)cc1,PR1,-,MIC,>128 µg/mL
CCCCCCCCCCCOC[N+](C)(C)Cc1cc(N=Nc2ccc(C)cc2)ccc1O,-,-,MIC,1021 µM
Cc1ccc(C(Cn2ccnc2)OCc2ccc(C(C)(C)C)cc2)cc1,CA2,-,MIC,>128 µg/mL
O=C(/C=C/c1cccc(F)c1)OC1CCN(CC(O)(Cn2cncn2)c2ccc(F)cc2F)CC1,Y0109,broth dilution,MIC80,0.005 µM
Clc1ccc(C(Cn2ccnc2)OC/C=C/c2ccccc2)c(Cl)c1,PR1,-,MIC,4 µg/mL
O=C(OC1CCN(CC(O)(Cn2cncn2)c2ccc(F)cc2F)CC1)C(F)(F)Cl,Y0109,broth dilution,MIC80,2.222 µM

A second listing of 8 rows from above:

SMILES | strain | method | endpoint | value
O=C(CN1CCCC1)N/N=C\C(=O)c1ccc(Oc2ccccc2)cc1 | - | - | MIC | >50 µg/mL
O=C(/C=C/c1ccc(Cl)cc1Cl)OC1CCN(CC(O)(Cn2cncn2)c2ccc(F)cc2F)CC1 | Y0109 | broth dilution | MIC80 | 0.117 µM
COc1cncc(C(N)=NNc2ccccc2)n1 | - | broth dilution | MIC | 16 µg/mL
CCOc1cc2c(cc1F)n([O-])c(C)c(S(=O)(=O)c1ccccc1)[n+]2=O | Clinical isolate 2 | - | MIC | 15.6 µg/mL
CC(C)C(CCC(C)C1CC[C@@]2(C)C3=C(CCC12C)C1(C)CC[C@H](O)C(C)(C)C1CC3)NC1CCCCC1 | A.10231 | - | MIC90 | 50 µg/mL
Cc1ccc(C2c3c(nc(=O)[nH]c3N)Oc3c2c(C)nn3-c2ccccc2)cc1 | MTCC 227 | - | MIC | 1000 µg/mL
CCCCCCOC[N+](C)(C)Cc1cc(N=Nc2ccc(Cl)cc2)ccc1O | - | - | MIC | 70 µM
CC(C)(C)c1ccc(COC(Cn2ccnc2)c2ccccc2)cc1 | 5M | - | MIC | 128 µg/mL

Conditions beyond the fields shown may differ between rows. Blank or dashed fields: not listed here.